Data published in patent US11324216B2, “Methods for controlling root parasitic weeds: inhibitors of seed germination in Striga” (King Abdullah University of Science and Technology, priority 2017, dated 2022).

Chains of the proteins cited; added tags and fusions are not shown. Residues count along the entry.
UniProt A0A0M3PNA2, 1-271: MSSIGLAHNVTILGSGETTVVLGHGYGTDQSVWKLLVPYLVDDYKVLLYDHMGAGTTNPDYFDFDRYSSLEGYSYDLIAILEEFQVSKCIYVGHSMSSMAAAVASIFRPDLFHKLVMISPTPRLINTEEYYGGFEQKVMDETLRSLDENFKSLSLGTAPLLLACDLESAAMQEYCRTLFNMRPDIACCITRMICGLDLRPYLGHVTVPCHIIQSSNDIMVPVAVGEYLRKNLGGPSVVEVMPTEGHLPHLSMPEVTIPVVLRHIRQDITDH

Target: ShHTL7 (Striga hermonthica, UniProt A0A0M3PNA2)
Experiment: Yoshimulactone Green (YLG) hydrolysis analysis
Conditions: read-out: IC50 of YLG hydrolysis by ShHTL7; pre-incubation 30 min, 1 μM YLG 60 min

In the case of `CC(C)(C)CC(C)(C)c1ccc(OCCOCCOCCOCCOCCOCCOCCOCCOCCOCCOCCOCCOCCOCCOCCOCCOCCOCCOCCOCCOCCOCCOCCOCCOCCOCCOCCOCCOCCOCCOCCOCCOCCOCCOCCOCCOCCOCCOCCOCCOCCO)cc1`, the IC50 is reported as 11.5 µM.
